Results of unrelated studies side by side (data: NIAID ChemDB).

Shared fields: growth or infection tests; organism: HIV-1; endpoint: EC50

ECn: concentration that inhibits the pathogen or its effect by n%. Lines come from different laboratories, so protocols vary. An empty or dashed field is not shown.

SMILES | strain | cells | mutations | method | setting | value
CCN[C@H]1CO[C@@H]2OCC[C@H](OC(=O)N[C@@H](Cc3ccccc3)[C@H](O)CN(CC(C)C)S(=O)(=O)c3ccc4nc(NC5CC5)sc4c3)[C@@H]21 | NL4-3 | MT-4 | L23I E34Q K43I M46I I50L G51A L63P A71V V82A T91A | p24 / luminescence | - | 0.0009 µM
C/C=C/CSc1cc(NC(=S)c2ccsc2C)ccc1Cl | IIIB | AA5 | - | cytopathic effect / XTT | - | 0.2 µM
O=C(Nc1ccccc1)C1=COCCS1 | IIIB | CEM + CEM-SS | RT-Y181C | cytopathic effect / XTT | - | 3.9 µM
Cc1cn([C@H]2C[C@H](N=[N+]=[N-])[C@@H](CO)O2)c(=O)[nH]c1=O | NL4-3 | CEM + CEM-SS | RT-V179D | XTT | - | 0.003 µM
COC(=O)N[C@H](C(=O)N[C@@H](Cc1ccccc1)[C@@H](O)CN(Cc1ccc(-c2ccccn2)cc1)NC(=O)[C@@H](NC(=O)OC)C(C)(C)C)C(C)(C)C | ERS104pre | PBMC | L63P | p24 / luminescence | - | 0.0025 µM
Cc1ccnc2c1NC(=O)c1cccnc1N2C1CC1 | NL4-3 | CEM + CEM-SS | RT-Y188C | XTT | - | 3.2 µM
Cc1ccnc2c1NC(=O)c1cccnc1N2C1CC1 | SK1 | CEM + CEM-SS | - | cytopathic effect / XTT | - | 0.2 µM
Cc1cc(C#N)cc(C)c1Oc1nc(Nc2ccc(C#N)cc2)nc(N)c1Br | 97ZA009 | PBMC | - | absorbance | - | 0.0005 µM
Nc1ccn([C@@H]2CS[C@H](CO)O2)c(=O)n1 | - | Primary T lymphocytes | K65R | p24 / ELISA | - | 2.5 µM
CCn1nc(Cc2ccc(C#N)cc2)cc1C1CCN(C[C@H]2CN([C@@H](C(=O)O)C(C)(C)C)C[C@@H]2c2cccc(F)c2)CC1 | BaL | HeLa | - | β-galactosidase | 50% human serum | <0.0037 µM
Cc1cn([C@H]2C[C@H](N=[N+]=[N-])[C@@H](CO)O2)c(=O)[nH]c1=O | NL4-3 | CEM + CEM-SS | - | cytopathic effect / XTT | - | 0.001 µM
C[C@H](Cn1cnc2c(N)ncnc21)OCP(=O)(O)O | Recombinant | HeLa | RT-V118I M184V | luciferase | - | 0.5555 µM
CC(C)[C@H](NC(=O)c1ccc2ccccc2n1)C(=O)N[C@@H](Cc1ccccc1)[C@H](O)CN1CC[C@@H](OCc2ccncc2)C[C@H]1C(=O)NC(C)(C)C | Wg3523 | PBMC | - | p24 / ELISA / antigen | - | 0.024 µM
Cc1cc2c(c(S(=O)(=O)c3ccccc3[N+](=O)[O-])c1)NCCC2 | IIIB | CEM + CEM-SS | - | XTT | - | 0.5 µM
CC[C@H](C)[C@@H](C(=O)O)n1sc2ccccc2c1=O | BR /93/020 | PBMC | - | p24 / RT activity | - | 9.5 µM
CC[C@@H](C)[C@H](C(=O)O)N1C[C@H](CN2CCC(c3cc(Cc4ccc(Oc5ccccc5)cc4)nn3CC)CC2)[C@@H](c2cccc(F)c2)C1 | BaL | HeLa | - | β-galactosidase | - | <0.0037 µM
CCCc1cc(=O)oc2c3c(c4c(c12)OC(C)(C)C=C4)O[C@H](C)[C@@H](C)[C@@H]3O | IIIB | AA5 | - | XTT | - | 0.2 µM
S=C(NCCc1cccs1)Nc1ccc(Br)cn1 | 780-1 Clinical isolate NRTI-resistant | HT4 + HeLa | RT-M41L D67N K70R T215F K219Q | plaque count | - | 0.015 µM
CC[C@H](C)[C@H](C(=O)O)N1C[C@H](CN2CCC(c3cc(Cc4ccc(OCC(F)(F)F)cc4)nn3CC)CC2)[C@@H](c2cccc(F)c2)C1 | BaL | HeLa | - | β-galactosidase | - | <0.0004 µM
CN1N=C(N)c2cn([C@@H]3O[C@H](COP(=O)(O)O)[C@@H](O)[C@H]3O)c3ncnc1c23 | TP1 | CEM + CEM-SS | - | XTT | - | 0.07 µM
O=c1[nH]cnc2c1ncn2[C@H]1CC[C@@H](CO)O1 | RTMC (RT-Y181C) | HT4 + HT4 LacZ-1 | RT-D67N K70R Y181C T215Y K219Q | plaque count | - | 1.4 µM
COC(=O)N[C@H](C(=O)N[C@@H](Cc1ccccc1)[C@@H](O)CN(Cc1ccc(-c2ccccn2)cc1)NC(=O)[C@@H](NC(=O)OC)C(C)(C)C)C(C)(C)C | NL4-3 | MT-4 | L10I I15V K20R L24I V32I M36I M46I I54V I62V L63P K70Q V82A L88M | p24 / luminescence | - | >1 µM
CO[P@](=O)(c1cc(C)cc(/C=C/C#N)c1)c1c(C(N)=O)[nH]c2ccc(Cl)cc12 | BH10 | MT-4 | Y181C | - | - | 0.0015 µM
Cc1ccnc2c1NC(=O)c1cccnc1N2C1CC1 | NL4-3 | CEM + CEM-SS | RT-V106I | cytopathic effect / XTT | - | >2 µM
O=c1[nH]cnc2c1ncn2C1CC[C@@H](CO)O1 | - | Primary T lymphocytes | L74V | p24 / ELISA | - | 13.2 µM
CC(C)CN(C[C@@H](O)[C@H](Cc1ccc(F)cc1)NC(=O)O[C@H]1CCO[C@H]2OCC[C@H]21)S(=O)(=O)c1ccc2nc(NC(C)C)sc2c1 | NL4-3 | MT-4 | - | p24 / luminescence | - | 0.0018 µM
O=S(=O)(c1ccccc1)c1ccccc1 | UC781-R (RT-Y181C) | CEM + CEM-SS | RT-Y181C | cytopathic effect / XTT | - | >114 µM
Cc1cc(S(N)(=O)=O)ccc1NC(=O)COc1ccc(Cl)cc1C(=O)c1cc(Cl)cc(C#N)c1 | NNRTI-resistant (RT V106I Y181C) | MAGI | RT-V106I Y181C | β-galactosidase | - | 0.0049 µM
Cc1cn([C@H]2C[C@H](N=[N+]=[N-])[C@@H](CO)O2)c(=O)[nH]c1=O | Clinical isolate | PBMC | A114S | single cycle / fluorescence | - | 0.00271 µM
Cc1occc1C(=S)Nc1ccc(Cl)c(/C=N/OC(C)(C)C)c1 | Pyridinone-resistant (RT Y181C K103N) | CEM + CEM-SS | RT-K103N Y181C | cytopathic effect / XTT | - | >100 µM
N#Cc1cc2[nH]c3ccccc3c2n(-c2ccc([N+](=O)[O-])cc2)c1=O | NNRTI-resistant | HeLa | RT-V106I Y188L | luciferase | - | 0.06 µM
Nc1ccn([C@H]2CC[C@@H](CO)O2)c(=O)n1 | RTMN (RT-M41L T215Y) | HT4 + HT4 LacZ-1 | RT-M41L T215Y | plaque count | - | 0.71 µM
CC(=O)N1CCC(C(=O)N(CCCN2CCC(Cc3ccc(C(N)=O)cc3)CC2)c2ccc(C)c(Cl)c2)CC1 | R5 subtype F_2 recombinant | U87 (CD4+ CCR5+) + U87 | - | luciferase | - | 0.0055 µM
Cc1ccnc2c1NC(=O)c1cccnc1N2C1CC1 | - | - | Y181C | RT activity / fluorescence | - | >42 µM
CC(C)=CCN1Cc2cc(Cl)cc3[nH]c(=S)n(c23)C[C@@H]1C | MFE30(RT-P236L) | MT-4 | RT-P236L | antigen | - | ~0.03 µM
CC(C)OC(=O)OCOP(=O)(CO[C@H](C)Cn1cnc2c(N)ncnc21)OCOC(=O)OC(C)C | NL4-3 | TZM-gfp | A114S | GFP | - | 0.04 µM
Cc1cn([C@H]2C=C[C@@H](CO)O2)c(=O)[nH]c1=O | Clinical isolate | MT-2 | K65R/Y181C/G190S | recombinant virus assay | - | 0.672 µM
N#CC[C@H](C1CCCC1)n1cc(-c2ncnc3[nH]ccc23)cn1 | - | Primary T lymphocytes | A62V V75I F77L F116Y Q151M | p24 / ELISA | - | 0.03 µM
Nc1nc(=O)n([C@@H]2CS[C@H](CO)O2)cc1F | Clinical isolate | MT-2 | K103N/M184V | recombinant virus assay | - | >13.3 µM
c1ccc(CNCc2ccc(CN3CCCNCCNCCCNCC3)cc2)nc1 | NL4-3 | MT-4 | - | cytopathic effect / MTS | - | 0.0061 µM
CCc1c(Sc2ccccn2)n(COCc2ccccc2)c(=O)[nH]c1=O | IIIB | CEM + CEM-SS | RT-V108I | cytopathic effect / XTT | - | 0.8 µM
CN[C@H]1CO[C@@H]2OCC[C@H](OC(=O)N[C@@H](Cc3ccccc3)[C@H](O)CN(CC(C)C)S(=O)(=O)c3ccc4nc(NC5CC5)sc4c3)[C@@H]21 | NL4-3 | MT-4 | L10F V32I L33F M46L I54M A71V | p24 / luminescence | - | 0.0044 µM
CCC(=O)c1ccc(F)c([C@@H]2C[C@@H]2NC(=O)Nc2ccc(C#N)cn2)c1O | 92BR025 | PBMC | - | absorbance | - | 0.0002 µM
CC(C)CN(C[C@@H](O)[C@H](Cc1ccccc1)NC(=O)O[C@H]1CCO[C@H]2OCC[C@H]21)S(=O)(=O)c1ccc2nc(NC3CC3)sc2c1 | NL4-3 | MT-4 | - | p24 / luminescence | - | 0.006 µM
CNc1ccc(Cl)cc1S(=O)(=O)c1ccccc1[N+](=O)[O-] | BaL | MAC | - | XTT | - | 0.3 µM
CC(C)=CCN1c2cc(Cl)cc3[nH]c(=S)n(c23)C[C@@H]1C | - | MT-4 | RT-D67N K70R T215Y K219Q L100I | - | - | <0.2 µM
Cc1cc(=O)c2ccc(N=C=S)cc2o1 | IIIB | PBMC | - | p24 / ELISA | - | 0.222 µM
CC(=O)c1ccc(C)cc1NC(C(N)=O)c1c(Cl)cccc1Cl | Costatolide-resistant (RT L100I T139I) | CEM + CEM-SS | RT-L100I T139I | XTT | - | 0.09 µM
CCN[C@H]1CO[C@@H]2OCC[C@H](OC(=O)N[C@@H](Cc3cccc(OC)c3)[C@H](O)CN(CC(C)C)S(=O)(=O)c3ccc4nc(NC(C)C)sc4c3)[C@@H]21 | NL4-3 | MT-4 | L10F L33I M36I M46I I54V K55R I62V L63P A71V G73S V82T | p24 / luminescence | - | 0.003 µM
CCCOc1ccc(Cc2cc(C3CCN(C[C@H]4CN([C@@H](C(=O)O)[C@H](C)CC)C[C@@H]4c4cccc(F)c4)CC3)n(CC)n2)cc1 | BaL | HeLa | - | β-galactosidase | 50% human serum | <0.3 µM
O=C1CN=C(c2ccc[nH]2)c2cc(Cl)ccc2N1 | IIIB/LAI | MOLT-4 (CLONE 8) + MOLT-4 | - | antigen | - | 0.4 µM
CCc1c(Sc2ccccn2)n(COCc2ccccc2)c(=O)[nH]c1=O | IIIB | CEM + CEM-SS | - | XTT | - | 0.04 µM
O=c1[nH]cnc2c1ncn2[C@H]1CC[C@@H](CO)O1 | RTMN (RT-M41L T215Y) | HT4 + HT4 LacZ-1 | RT-M41L T215Y | plaque count | - | 3.02 µM
Cn1c2ccccc2c2c1cc(C#N)c(=O)n2-c1ccc([N+](=O)[O-])cc1 | NRTI resistant | HeLa | RT-K65R | luciferase | - | 0.0054 µM
Cc1cn([C@H]2C[C@H](N=[N+]=[N-])[C@@H](CO)O2)c(=O)[nH]c1=O | IIIB | MT-4 | - | cytopathic effect / MTS | - | 0.0004 µM
CCn1nc(Cc2ccc(O)cc2)cc1C1CCN(C[C@H]2CN([C@@H](C(=O)O)C(C)C)C[C@@H]2c2cccc(F)c2)CC1 | BaL | HeLa | - | β-galactosidase | - | <0.0012 µM
O=C1N(Cc2ccc(CO)cc2)[C@H](Cc2ccccc2)[C@H](O)[C@@H](O)[C@@H](Cc2ccccc2)N1Cc1ccc(CO)cc1 | Clinical isolate X | PBMC | - | p24 | - | 0.09 µM
Cc1cn([C@H]2C[C@H](N=[N+]=[N-])[C@@H](CO)O2)c(=O)[nH]c1=O | Clinical isolate | PBMC | WAN | ELISA | - | 0.0165 µM
Cc1cn([C@H]2C[C@H](N=[N+]=[N-])[C@@H](CO)O2)c(=O)[nH]c1=O | A018A (RT-WT) | HT4 + HT4-6C | - | plaque count | - | 0.01 µM
Cc1ccnc2c1NC(=O)c1cccnc1N2C1CC1 | HEPT-resistant (RT P236L) | CEM + CEM-SS | RT-P236L | cytopathic effect / XTT | - | 0.02 µM

The first 4 rows once more:

{"SMILES": "CCN[C@H]1CO[C@@H]2OCC[C@H](OC(=O)N[C@@H](Cc3ccccc3)[C@H](O)CN(CC(C)C)S(=O)(=O)c3ccc4nc(NC5CC5)sc4c3)[C@@H]21", "strain": "NL4-3", "cells": "MT-4", "mutations": "L23I E34Q K43I M46I I50L G51A L63P A71V V82A T91A", "method": "p24 / luminescence", "value": "0.0009 µM"}
{"SMILES": "C/C=C/CSc1cc(NC(=S)c2ccsc2C)ccc1Cl", "strain": "IIIB", "cells": "AA5", "method": "cytopathic effect / XTT", "value": "0.2 µM"}
{"SMILES": "O=C(Nc1ccccc1)C1=COCCS1", "strain": "IIIB", "cells": "CEM + CEM-SS", "mutations": "RT-Y181C", "method": "cytopathic effect / XTT", "value": "3.9 µM"}
{"SMILES": "Cc1cn([C@H]2C[C@H](N=[N+]=[N-])[C@@H](CO)O2)c(=O)[nH]c1=O", "strain": "NL4-3", "cells": "CEM + CEM-SS", "mutations": "RT-V179D", "method": "XTT", "value": "0.003 µM"}